The values that follow come from patent publication US20260315452A1, “PROTEASE INHIBITORS AND USES THEREOF” (priority 2023, published 2026).

The match of structure and compound is tentative.

The assay addresses SARS-CoV-2 3CLpro (Severe acute respiratory syndrome coronavirus 2, UniProt P0DTD1). Description: In vitro FRET-based enzymatic assay, inhibition of SARS-CoV-2 3CLpro. It is filed as biochemical. The note with it: read-out: Inhibitory Activity (IC50), 15 nM 3CLpro, 25 μM fluorogenic substrate, 37° C.

Usually IC50 stands for the concentration that gives 50% inhibition. For the compound `CNC(=O)c1cc(Cl)cc([N+](=O)[O-])c1N[C@H]1CN(C(=O)c2cncc3c2ccn3C)CCC1(F)F`, the IC50 was less than 100 nM.
